Values from PubChem BioAssay AID624099 (ICCB-Longwood, 2012)
Assay: 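Knock-downs relieving repression by E2 of an HPV18 LCR luciferase reporter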 (primary screen). Cells: human C33A cervical carcinoma cells (HPV-negative) stably expressing BPV1 E2 and an HPV18 LCR luciferase reporter. Knock-down reagent: siRNA pool against human genes, 40 nM. Duration: 72 h. Measurement: 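HPV18 LCR reporter light per well, converted to plate-wise z-scores that exclude control wells, and averaged over triplicate plates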. Scale: mean z-score and z-score: higher = stronger reporter signal, weaker E2 silencing. Call rule: 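Mean z ≥ 2 together with z ≥ 2 in two or more of the three replicates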.
Here is one part, drawn at random, of about 21,000 reagents. Over the whole deposit, 497 (2.4%) are marked active. 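Higher z means weaker E2 silencing; only reporter increases were scored, and knock-downs that hurt cell survival may mask genuine repressor factors.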 A number with no mark means an inactive call.

HBS1L [SID134319707] → mean z-score = 0.34; z-score, replicate A = 0.54; z-score, replicate B = 0.25; z-score, replicate C = 0.23
AGER [SID134309970] → mean z-score = -0.38; z-score, replicate A = -0.24; z-score, replicate B = -0.4; z-score, replicate C = -0.49
CAPN2 [SID134311231] → mean z-score = -1.08; z-score, replicate A = -0.6; z-score, replicate B = -1.34; z-score, replicate C = -1.29
MYH15 [SID134325740] → mean z-score = 0.02; z-score, replicate A = 0.27; z-score, replicate B = -0.39; z-score, replicate C = 0.19
PSMB2 [SID134314989] → mean z-score = 0.19; z-score, replicate A = 0.1; z-score, replicate B = 0.08; z-score, replicate C = 0.38
EEF1AKMT3 [SID134318164] → mean z-score = -0.48; z-score, replicate A = -0.39; z-score, replicate B = -0.54; z-score, replicate C = -0.52
PCF11 [SID134319426] → mean z-score = 1.63; z-score, replicate A = 1.47; z-score, replicate B = 1.89; z-score, replicate C = 1.52
INSAF (retired record) [SID134329740] → mean z-score = -0.09; z-score, replicate A = 0.09; z-score, replicate B = -0.3; z-score, replicate C = -0.05
POU4F1 [SID134320073] → mean z-score = -0.98; z-score, replicate A = -1.09; z-score, replicate B = -0.97; z-score, replicate C = -0.89
SRGAP1 [SID134326702] → mean z-score = -0.51; z-score, replicate A = -0.6; z-score, replicate B = -0.56; z-score, replicate C = -0.38
FLJ44896 (retired record) [SID134329649] → mean z-score = 0.3; z-score, replicate A = 0.52; z-score, replicate B = 0.19; z-score, replicate C = 0.2
REM2 [SID134313197] → mean z-score = -0.92; z-score, replicate A = -0.96; z-score, replicate B = -0.94; z-score, replicate C = -0.85

Laid out differently: entries from further up
gene knocked down,PubChem SID,mean z-score,"z-score, replicate A","z-score, replicate B","z-score, replicate C"
INSAF (retired record),SID134329740,-0.09,0.09,-0.3,-0.05
POU4F1,SID134320073,-0.98,-1.09,-0.97,-0.89
